The other results are listed elsewhere or left out. Entries with a potency or affinity are not part of this list. Some salts or complexes appear as unconnected parts, following the source record. The source made the active and inactive calls. Rule as the data show it: inconclusive = inhibition above about 27% without an active follow-up result; inactive = below that.
Test: NS1A inhibition, H1N1 influenza, cell based functional assay (AID 504329)
Conditions: percent inhibition, at 12.5 µM, hits give high values

Row | Compound | inhibition
1 | COc1ccc(OP(C)(=O)Nc2ccccn2)cc1 (stereo not given) | inactive: -0.34%
2 | CN(C)CCOC(=O)C(O)(c1ccccc1)C1CCCC1 (stereo not given) | inactive: -18.3%
3 | COc1ccccc1OP(C)(=O)Nc1ccc(Br)cc1 (stereo not given) | inactive: 2.53%
4 | COc1ccccc1OP(C)(=O)Nc1ccc(C)cc1C (stereo not given) | inactive: -1.52%
5 | CP(=O)(Nc1ccccn1)Oc1ccccc1 (stereo not given) | inactive: 9.14%
6 | CCc1ccc(OP(C)(=O)O)cc1 | inactive: 2.77%
7 | Cc1c(NP(C)(=O)Oc2ccc(C(C)C)cc2)c(=O)n(-c2ccccc2)n1C (stereo not given) | inactive: 2.16%
8 | O=[N+]([O-])c1cc([N+](=O)[O-])c(Nc2ccccn2)c([N+](=O)[O-])c1 | inactive: 3.23%
9 | COc1ccccc1OP(C)(=O)Nc1ccc(C)c(C)c1 (stereo not given) | inactive: -2.72%
10 | COc1ccc(OP(C)(=O)Nc2ccccc2Br)cc1 (stereo not given) | inactive: -6.76%
11 | Cc1cc(C)cc(OP(C)(=O)Nc2cccc(C(F)(F)F)c2)c1 (stereo not given) | inactive: 1.79%
12 | O=C1C(O)=C([N+](=O)[O-])C(=O)C(O)=C1[N+](=O)[O-] | inactive: -25.1%
13 | CP(=O)(Nc1ccc(Cl)cc1Cl)Oc1ccccc1 (stereo not given) | inactive: -4.4%
14 | CCCCCCCCCCCCCCCC1C[N+](C)(C)CCOP(C)(=O)O1 (stereo not given) | inactive: 2.53%
15 | CP(=O)(OCCOc1ccccc1)OCCOc1ccccc1 | inactive: 2.73%
16 | CCOC(=O)c1ccc(NP(C)(=O)Oc2ccc(Cl)cc2)cc1 (stereo not given) | inactive: -4.4%
17 | CP(=O)(OC12CC3CC(CC(C3)C1)C2)OC12CC3CC(CC(C3)C1)C2 | inactive: 0.94%
18 | O=C(OCCCN1CCCC1)C(O)(c1ccccc1)C1CCCCC1 (stereo not given) | inactive: 0.27%
19 | COc1ccccc1OP(C)(=O)Nc1c(C)n(C)n(-c2ccccc2)c1=O (stereo not given) | inactive: -0.55%
20 | CCc1ccc(OP(C)(=O)Nc2cccnc2)cc1 (stereo not given) | inactive: 3.56%
21 | CP(=O)(Oc1ccccc1)N1CCOC1=O (stereo not given) | inactive: 0.35%
22 | COc1ccc(OP(C)(=O)Nc2ccc(Br)cc2)cc1 (stereo not given) | inactive: 0.57%
23 | CCN(CC)CC(O)COC(=O)C(O)(c1ccccc1)C1CCCCC1 (stereo not given) | inactive: 6.08%

Row | Compound | inhibition
24 | CN(C)C(=O)c1c([N+](=O)[O-])cc([N+](=O)[O-])cc1[N+](=O)[O-] | inactive: -4.87%
25 | COc1ccccc1OP(C)(=O)Nc1ccccc1Br (stereo not given) | inactive: -2.35%
26 | CC(C)(C)c1ccc(OP(C)(=O)O)cc1 | inactive: 0.47%
27 | CP(=O)(Nc1ccc(Cl)cc1)Oc1ccc(F)cc1 (stereo not given) | inactive: -0.21%
28 | CCOP(C)(=S)SCC(=O)NC(C)(CC)C(=O)O (stereo not given) | inactive: 4.43%
29 | CP(=O)(Nc1ccc(SC(F)(F)F)cc1)Oc1ccc(F)cc1 (stereo not given) | inactive: -3.01%
30 | Cc1ccccc1NP(C)(=O)Nc1ccccc1C | inactive: -3%
31 | CP(=O)(Nc1ccc2c(c1)OCCO2)Oc1ccccc1 (stereo not given) | inactive: -13.2%
32 | CN(C)CCOC(=O)C(O)(c1ccccc1)C1CCCCC1 (stereo not given) | inactive: 8.01%
33 | COc1ccc(NP(C)(=O)Oc2ccccc2OC)cc1 (stereo not given) | inactive: -1.82%
34 | COc1ccc(OP(C)(=O)Nc2cccc(Br)c2)cc1 (stereo not given) | inactive: -0.53%
35 | Cc1c(C(c2ccc3c(c2)OCO3)c2c(C)n(C)n(-c3ccccc3)c2=O)c(=O)n(-c2ccccc2)n1C.O=[N+]([O-])c1cc([N+](=O)[O-])c(O)c([N+](=O)[O-])c1 | inactive: 18.8%
36 | O=[N+]([O-])c1ccc(OP2(=O)COCCO2)cc1 (stereo not given) | inactive: -6.47%
37 | O=[N+]([O-])c1cc([N+](=O)[O-])c(NCC2CCS(=O)(=O)C2)c([N+](=O)[O-])c1 (stereo not given) | inactive: 2.36%
38 | Cc1cc(-c2cccc3ccccc23)c(C)cn1.O=[N+]([O-])c1cc([N+](=O)[O-])c(O)c([N+](=O)[O-])c1 | inactive: 12%
39 | CCOC(=O)c1ccc(NP(C)(=O)Oc2ccc(F)cc2)cc1 (stereo not given) | inactive: -6.28%
40 | COc1ccc(OP(C)(=O)Nc2ccc(SC(F)(F)F)cc2)cc1 (stereo not given) | inactive: -6.8%
41 | CP(=O)(Nc1ccccc1)Oc1ccc(F)cc1 (stereo not given) | inactive: -1.5%
42 | O=[N+]([O-])c1cc([N+](=O)[O-])c(OC2CCCCC2O)c([N+](=O)[O-])c1 (stereo not given) | inactive: -1.8%
43 | CCCCCOc1ccc(NP(C)(=O)Oc2ccc(Cl)cc2Cl)cc1 (stereo not given) | inactive: -15.4%
44 | Cc1c([N+](=O)[O-])cc([N+](=O)[O-])c(Br)c1[N+](=O)[O-] | inactive: 5.81%
45 | CCN(CC)CCCOC(=O)C(O)(c1ccccc1)C1CCCCC1 (stereo not given) | inactive: 7.18%
46 | CP(=O)(Nc1ccccc1F)Oc1ccccc1 (stereo not given) | inactive: -2.34%

Row | Compound | inhibition
47 | CC(C)c1ccc(OP(C)(=O)Nc2ccc(SC(F)(F)F)cc2)cc1 (stereo not given) | inactive: -8.48%
48 | COc1ccc2c(c1O)-c1c(O)c(OC)cc3c1[C@H](C2)[N+](C)(C)CC3.O=[N+]([O-])c1cc([N+](=O)[O-])c([O-])c([N+](=O)[O-])c1[O-] | inactive: 0.28%
49 | O=C(OC1CN2CCC1CC2)c1ccc([N+](=O)[O-])cc1 (stereo not given) | inactive: 14.5%
50 | O=C(OCCN1CCN(CCOCc2ccccc2)CC1)C(O)(c1ccccc1)c1ccccc1 | inactive: 22.9%
51 | CCOC(=O)c1ccc(NP(C)(=O)Oc2cc(C)cc(C)c2)cc1 (stereo not given) | inactive: 0.86%
52 | Cc1cc(C)cc(OP(C)(=O)Nc2ccc(C)cc2C)c1 (stereo not given) | inactive: -3.93%
53 | COc1ccccc1OP(C)(=O)Nc1cccc(Br)c1 (stereo not given) | inactive: -13%
54 | Cc1ccc(C)c(NP(C)(=O)Oc2ccccc2)c1 (stereo not given) | inactive: 4.55%
55 | Cc1cc(C)cc(OP(C)(=O)Nc2ccccn2)c1 (stereo not given) | inactive: -3.4%
56 | CP(=O)(Nc1cccc(Br)c1)Oc1ccccc1 (stereo not given) | inactive: -1.85%
57 | O=C(O)c1cccc(Nc2c([N+](=O)[O-])cc([N+](=O)[O-])cc2[N+](=O)[O-])c1 | inactive: 6.29%
58 | CC1=NCCc2c1[nH]c1ccccc21.O=[N+]([O-])c1cc([N+](=O)[O-])c(O)c([N+](=O)[O-])c1 | inactive: 8.47%
59 | CCOC(=O)C(CC)C1=NC(C)(C)Cc2ccccc21.O=[N+]([O-])c1cc([N+](=O)[O-])c(O)c([N+](=O)[O-])c1 (stereo not given) | inactive: -12.2%
60 | CC1=C2N=C(C=C3N=C(C(C)=C4[N-][C@@](C)([C@@H]5N=C1[C@](C)(CCC(=O)NC[C@@H](C)OP(=O)([O-])O[C@H]1[C@@H](O)[C@@H](n6cnc7cc(C)c(C)cc76)O[C@@H]1CO)[C@H]5CC(N)=O)[C@@](C)(CC(N)=O)[C@@H]4CCC(N)=O)[C@@](C)(CC(N)=O)[C@@H]3CCC(N)=O)C(C)(C)[C@@H]2CCC(N)=O.[C-]#N.[Co+3] | inactive: 6.38%
61 | O=[N+]([O-])c1cc([N+](=O)[O-])c(Nc2nnnn2CCO)c([N+](=O)[O-])c1 | inactive: -12.3%
62 | CCCOc1ccc(NP(C)(=O)Oc2ccc(Cl)cc2)cc1 (stereo not given) | inactive: 1.23%
63 | CP(=O)(Nc1ccc(SC(F)(F)F)cc1)Oc1ccccc1 (stereo not given) | inactive: -5.12%
64 | CN1CCCCC1COC(=O)C1(O)c2ccccc2CCc2ccccc21 (stereo not given) | inactive: -13.3%
65 | COc1ccccc1OP(C)(=O)Nc1c(C)cccc1C (stereo not given) | inactive: 6.53%
66 | O=[N+]([O-])c1cc([N+](=O)[O-])c(-n2nnc3ccccc32)c([N+](=O)[O-])c1 | inactive: -4.77%
67 | Cc1nc2ccc3ccccc3c2s1.O=[N+]([O-])c1cc([N+](=O)[O-])c(O)c([N+](=O)[O-])c1 | inactive: -4.56%
68 | O=[N+]([O-])c1cc([N+](=O)[O-])c(-c2cnn(-c3ccccc3)c2)c([N+](=O)[O-])c1 | inactive: -5.77%
69 | Cc1cc(C)cc(OP(C)(=O)Nc2ccc(SC(F)(F)F)cc2)c1 (stereo not given) | inactive: 18%

Row | Compound | inhibition
70 | CP(=O)(NC(=O)Nc1ccccc1)Oc1ccccc1 (stereo not given) | inactive: 4.8%
71 | CCc1ccc(OP(C)(=O)N2CCN(c3ccc([N+](=O)[O-])cc3)CC2)cc1 (stereo not given) | inactive: 0.75%
72 | CP(=O)(Oc1ccccc1)OC(c1ccccc1)C(F)(F)F (stereo not given) | inactive: -7.78%
73 | Cc1cccc(C)c1OP(C)(=O)Nc1ccc(SC(F)(F)F)cc1 (stereo not given) | inactive: -1.31%
74 | CP(=O)(Nc1ccccn1)Oc1ccc(Cl)cc1 (stereo not given) | inactive: -5.73%
75 | CCOC(=O)c1ccc(NP(C)(=O)Oc2ccc(OC)cc2)cc1 (stereo not given) | inactive: -7.67%
76 | CCOP(C)(=S)SCC(=O)NC(C)C(=O)O (stereo not given) | inactive: -2.16%
77 | CP(=O)(Nc1ccccc1Br)Oc1ccccc1 (stereo not given) | inactive: -7.46%
78 | COc1ccccc1OP(C)(=O)Nc1ccccc1 (stereo not given) | inactive: -0.43%
79 | CP(=S)(Nn1cnnc1)Oc1ccccc1 (stereo not given) | inactive: -11.5%
80 | O=[N+]([O-])c1ccc2c(c1)C=Nc1ccccc1O2 | inactive: 7.38%
81 | Cc1cccc(C)c1OP(C)(N)=O (stereo not given) | inactive: 1.89%
82 | CC(C)(C)c1ccc(OP(C)(=O)Nc2ccc(SC(F)(F)F)cc2)cc1 (stereo not given) | inactive: 2.06%
83 | O=[N+]([O-])c1cc([N+](=O)[O-])c(Nc2cccnc2)c([N+](=O)[O-])c1 | inactive: 9.67%
84 | Cc1cc(C)cc(OP(C)(N)=O)c1 (stereo not given) | inactive: 10.9%
85 | COc1ccc(OP(C)(=O)Nc2cccc(F)c2)cc1 (stereo not given) | inactive: -0.57%
86 | COc1ccccc1OP(C)(=O)Nc1cc(Cl)ccc1C (stereo not given) | inactive: -2.7%
87 | Cc1ccc(NP(C)(=O)Oc2ccccc2)c(C)c1 (stereo not given) | inactive: -4.44%
88 | COc1ccccc1OP(C)(=O)Nc1ccc(C)cc1 (stereo not given) | inactive: 7.91%
89 | CCOC(=O)c1ccc(NP(C)(=O)Oc2ccccc2)cc1 (stereo not given) | inactive: 3.87%
90 | CCN(CC)CCCOC(=O)C(O)(c1ccccc1)c1ccccc1 | inactive: 0.123%

Source: PubChem BioAssay AID504329 (Southern Research Specialized Biocontainment Screening …, 2011)
